This is a selection: effects in other tests are not listed, and their absence says nothing.
Tests used:
[1] = test system: respiratory syncytial virus Long strain; conditions: 4 μg/mL of compound; RSV Long strain-infected HEp-2 cells; compound added 1 hour post infection; 4 days; MTT
[2] = test system: HEp-2 (ATCC CCL 23) cells; experiment: Cellular toxicity, MTT staining in uninfected HEp-2 cells; conditions: concentration giving normalized OD540 half that of untreated uninfected cells

CN1CCC[C@@H]1Cn1c(Cn2nnc3ccccc32)nc2ccccc21
% Cell protection at 4 μg/mL [1]: 54% | CC50 [2]: 105 µM

c1ccc2c(c1)nnn2Cc1nc2ccccc2n1CCN1CCCCC1
% Cell protection at 4 μg/mL [1]: 92%

Cc1cc2nnn(Cc3nc4ccccc4n3CCN(C)C)c2cc1C
% Cell protection at 4 μg/mL [1]: 90% | CC50 [2]: 118 µM

c1ccc2c(c1)nnn2Cc1nc2ccccc2n1CCN1CCCC1
% Cell protection at 4 μg/mL [1]: 90% | CC50 [2]: 80 µM

CC(C)N(CCn1c(Cn2nnc3ccccc32)nc2ccccc21)C(C)C
% Cell protection at 4 μg/mL [1]: 55% | CC50 [2]: 42 µM

CNCCn1c(Cn2nnc3ccccc32)nc2ccccc21
% Cell protection at 4 μg/mL [1]: 100% | CC50 [2]: 74 µM

c1ccc2nn(Cc3nc4ccccc4n3CCN3CCCCCC3)nc2c1
% Cell protection at 4 μg/mL [1]: 77%

CN(C)CCn1c(Cn2nnc3ccccc32)nc2cc(Cl)c(Cl)cc21
% Cell protection at 4 μg/mL [1]: 97% | CC50 [2]: 18 µM

c1ccc2c(c1)nnn2Cc1nc2ccccc2n1CCN1CCCCCC1
% Cell protection at 4 μg/mL [1]: 73% | CC50 [2]: 67 µM

c1ccc2nn(Cc3nc4ccccc4n3CCN3CCCCC3)nc2c1
% Cell protection at 4 μg/mL [1]: 87% | CC50 [2]: 65 µM

NCCn1c(Cn2nnc3ccccc32)nc2ccccc21
% Cell protection at 4 μg/mL [1]: 81% | CC50 [2]: 86 µM

CN1CCC[C@H]1Cn1c(Cn2nnc3ccccc32)nc2ccccc21
% Cell protection at 4 μg/mL [1]: 53% | CC50 [2]: 24 µM

Cc1cc2nc(Cn3nnc4ccccc43)n(CCN(C)C)c2cc1C
% Cell protection at 4 μg/mL [1]: 100% | CC50 [2]: 92 µM

c1ccc2nn(Cc3nc4ccccc4n3CCN3CCCC3)nc2c1
% Cell protection at 4 μg/mL [1]: 92% | CC50 [2]: 140 µM

Reference: patent US7030140B2, “Substituted benzimidazole antiviral agents” (Bristol-Myers Squibb Company, priority 1998, dated 2006)
